Results of unrelated studies side by side (data: NIAID ChemDB).

All rows: growth or infection tests; species: Mycobacterium avium intracellulare; read-out: MIC

Conditions beyond the fields shown may differ between rows.

smiles	strain	value
CC[C@H]1OC(=O)[C@H](C)[C@@H](O[C@H]2C[C@@](C)(OC)[C@@H](OC(C)=O)[C@H](C)O2)[C@H](C)[C@@H](OC2O[C@H](C)C[C@H](N(C)C)[C@H]2OC(=O)NCCCCCCCCCCCCCCN(C)C)C(C)(O)C[C@@H](C)/C(=N\OCCCC2CCCCC2)[C@H](C)[C@@H](O)[C@]1(C)O	20066	0.2 µg/mL
CCCCCCCCCCCCC(=O)O[C@H]1[C@H](C)[C@@H](O[C@@H]2O[C@H](C)C[C@H](N(C)C)[C@H]2O)C(C)(O)C[C@@H](C)/C(=N\OCCCOc2ccccc2)[C@H](C)[C@@H](O)[C@](C)(O)[C@@H](CC)OC(=O)[C@@H]1C	20066 (clarithromycin-susceptible)	>50 µg/mL
CC(C)N=c1cc2n(-c3ccc(Cl)cc3)c3ccccc3nc-2cc1Nc1ccc(Cl)cc1	98562	0.5 µg/mL
CN(C)CCCN1c2ccccc2Sc2ccc(Cl)cc21	R 7313	25 µg/mL
CCNC(=O)[C@@H](NC(=O)Cc1ccccc1)[C@@H]1N[C@@H](C(=O)NCCNC(=O)[C@@H]2N[C@@H]([C@H](NC(=O)Cc3ccccc3)C(=O)NCC)SC2(C)C)C(C)(C)S1	CIPT 140310023	25 µg/mL
CCCCCCCCCCCCC(=O)O[C@H]1[C@H](C)OC(O[C@H]2[C@H](C)[C@@H](O[C@@H]3O[C@H](C)C[C@H](N(C)C)[C@H]3O)C(C)(O)C[C@@H](C)/C(=N\OCCCOc3ccccc3)[C@H](C)[C@@H](O)[C@](C)(O)[C@@H](CC)OC(=O)[C@@H]2C)C[C@@]1(C)OC	20066 (clarithromycin-susceptible)	>50 µg/mL
CO[C@H]1/C=C/O[C@@]2(C)Oc3c(C)c(O)c4c(O)c(c5c(c4c3C2=O)NC2(CCN(CC(C)C)CC2)N=5)=NC(=O)/C(C)=C\C=C\[C@H](C)[C@H](O)[C@@H](C)[C@@H](O)[C@@H](C)[C@H](OC(C)=O)[C@@H]1C	CIPT 140310021	0.05 µg/mL
CO[C@H]1/C=C/O[C@@]2(C)Oc3c(C)c(O)c4c(=O)c(c5oc6cc(N7CCN(CC(C)C)CC7)cc(=O)c6nc5c4c3=C2O)NC(=O)/C(C)=C\C=C\[C@H](C)[C@H](O)[C@@H](C)[C@@H](O)[C@@H](C)[C@H](OC(C)=O)[C@@H]1C	N-475 (HIV-)	0.016 µg/mL
CC(=O)NC[C@H]1CN(c2ccc(N3CCN(c4ccc([N+](=O)[O-])s4)CC3)c(F)c2)C(=O)O1	1211/96	8 µg/mL
CC[C@H]1OC(=O)[C@H](C)[C@@H](O[C@H]2C[C@@](C)(OC)[C@@H](OC(C)=O)[C@H](C)O2)[C@H](C)[C@@H](O[C@@H]2O[C@H](C)C[C@H](N(C)C)[C@H]2OC(=O)NN(C)Cc2ccccc2)C(C)(O)C[C@@H](C)/C(=N\OCCCC2CCCCC2)[C@H](C)[C@@H](O)[C@]1(C)O	20066 (clarithromycin-susceptible)	1.56 µg/mL
CN[C@@H]1[C@H](O[C@H]2[C@H](O[C@H]3[C@H](O)[C@@H](O)[C@H](N=C(N)N)[C@@H](O)[C@@H]3N=C(N)N)O[C@@H](C)[C@]2(O)C=O)O[C@@H](CO)[C@H](O)[C@H]1O	N-846 (HIV-)	4 µg/mL
CCCCCCCCNC(=O)O[C@H]1C(O[C@@H]2[C@@H](C)[C@H](O[C@H]3C[C@@](C)(OC)[C@@H](OC(C)=O)[C@H](C)O3)[C@@H](C)C(=O)O[C@H](CC)[C@@](C)(O)[C@H](O)[C@@H](C)/C(=N/OCCCC3CCCCC3)[C@H](C)CC2(C)O)O[C@H](C)C[C@@H]1N(C)C	20067	0.39 µg/mL
NC[C@H]1O[C@H](O[C@H]2[C@H](O)[C@@H](O[C@H]3O[C@H](CO)[C@@H](O)[C@H](N)[C@H]3O)[C@H](N)C[C@@H]2N)[C@H](O)[C@@H](O)[C@@H]1O	CIPT 140310023	10 µg/mL
CC[C@H]1OC(=O)[C@H](C)[C@@H](O[C@H]2C[C@@](C)(OC)[C@@H](OC(C)=O)[C@H](C)O2)[C@H](C)[C@@H](OC2O[C@H](C)C[C@H](N(C)C)[C@H]2OC(N)=O)C(C)(O)C[C@@H](C)/C(=N\OCCCC2CCCCC2)[C@H](C)[C@@H](O)[C@]1(C)O	20075	3.13 µg/mL
C[C@@H](O)[C@H]1C(=O)N2C(C(=O)O)=C(SCCN=CN)C[C@H]12	CIPT 140310001	2 µg/mL
COc1ccc2c(c1)N(C[C@H](C)CN(C)C)c1ccccc1S2	R 8656	25 µg/mL
CO[C@H]1/C=C/O[C@@]2(C)Oc3c(C)c(O)c4c(O)c(c(/C=N/N5CCN(C6CCCC6)CC5)c(O)c4c3C2=O)NC(=O)/C(C)=C\C=C\[C@H](C)[C@H](O)[C@@H](C)[C@@H](O)[C@@H](C)[C@H](OC(C)=O)[C@@H]1C	12-Feb	0.25 µg/mL
CC[C@H]1OC(=O)[C@H](C)[C@@H](OC2C[C@@](C)(OC)[C@@H](O)[C@H](C)O2)[C@H](C)[C@@H](O[C@@H]2O[C@H](C)C[C@H](N(C)C)[C@H]2O)C(C)(O)C[C@@H](C)/C(=N\OCCCc2ccccc2)[C@H](C)[C@@H](O)[C@]1(C)O	20066 (clarithromycin-susceptible)	1.56 µg/mL
CCCCNC(=O)O[C@H]1C(O[C@@H]2[C@@H](C)[C@H](O[C@H]3C[C@@](C)(OC)[C@@H](OC(C)=O)[C@H](C)O3)[C@@H](C)C(=O)O[C@H](CC)[C@@](C)(O)[C@H](O)[C@@H](C)/C(=N/OCCCC3CCCCC3)[C@H](C)CC2(C)O)O[C@H](C)C[C@@H]1N(C)C	20067	0.2 µg/mL
OCCN1CCN(CC/C=C2/c3ccccc3Sc3ccc(Cl)cc32)CC1	ATCC 23432	12.5 µg/mL
CC[C@H]1OC(=O)[C@H](C)[C@@H](O[C@H]2C[C@@](C)(OC)[C@@H](OC(C)=O)[C@H](C)O2)[C@H](C)[C@@H](O[C@@H]2O[C@H](C)C[C@H](N(C)C)[C@H]2OC(=O)NNC)C(C)(O)C[C@@H](C)/C(=N\OCCCC2CCCCC2)[C@H](C)[C@@H](O)[C@]1(C)O	20066 (clarithromycin-susceptible)	0.78 µg/mL
CC[C@H]1OC(=O)[C@H](C)[C@@H](O[C@H]2C[C@@](C)(OC)[C@@H](O)[C@H](C)O2)[C@H](C)[C@@H](O[C@@H]2O[C@H](C)C[C@H](N(C)C)[C@H]2O)[C@](C)(OC)C[C@@H](C)C(=O)[C@H](C)[C@@H](O)[C@]1(C)O	N-551 (HIV-)	2 µg/mL
CCC(=O)O[C@H]1[C@H](C)[C@@H](O[C@@H]2O[C@H](C)C[C@H](N(C)C)[C@H]2O)C(C)(O)C[C@@H](C)/C(=N\OCCCOc2ccccc2)[C@H](C)[C@@H](O)[C@](C)(O)[C@@H](CC)OC(=O)[C@@H]1C	20066 (clarithromycin-susceptible)	12.5 µg/mL
OCCN1CCN(CC/C=C2\c3ccccc3Sc3ccc(Cl)cc32)CC1	ATCC 23432	12.5 µg/mL
CO[C@H]1/C=C/O[C@@]2(C)Oc3c(C)c(O)c4c(O)c(c5c(c4c3C2=O)NC2(CCN(CC(C)C)CC2)N=5)=NC(=O)/C(C)=C\C=C\[C@H](C)[C@H](O)[C@@H](C)[C@@H](O)[C@@H](C)[C@H](OC(C)=O)[C@@H]1C	N-551 (HIV-)	0.125 µg/mL
CC[C@H]1OC(=O)[C@H](C)[C@@H](O[C@H]2C[C@@](C)(OC)[C@@H](OC(C)=O)[C@H](C)O2)[C@H](C)[C@@H](O[C@@H]2O[C@H](C)C[C@H](N(C)C)[C@H]2OC(=O)NNCc2ccccc2[N+](=O)[O-])C(C)(O)C[C@@H](C)/C(=N\OCCCC2CCCCC2)[C@H](C)[C@@H](O)[C@]1(C)O	20066 (clarithromycin-susceptible)	0.39 µg/mL

The first 3 rows once more:

smiles | strain | value
CC[C@H]1OC(=O)[C@H](C)[C@@H](O[C@H]2C[C@@](C)(OC)[C@@H](OC(C)=O)[C@H](C)O2)[C@H](C)[C@@H](OC2O[C@H](C)C[C@H](N(C)C)[C@H]2OC(=O)NCCCCCCCCCCCCCCN(C)C)C(C)(O)C[C@@H](C)/C(=N\OCCCC2CCCCC2)[C@H](C)[C@@H](O)[C@]1(C)O | 20066 | 0.2 µg/mL
CCCCCCCCCCCCC(=O)O[C@H]1[C@H](C)[C@@H](O[C@@H]2O[C@H](C)C[C@H](N(C)C)[C@H]2O)C(C)(O)C[C@@H](C)/C(=N\OCCCOc2ccccc2)[C@H](C)[C@@H](O)[C@](C)(O)[C@@H](CC)OC(=O)[C@@H]1C | 20066 (clarithromycin-susceptible) | >50 µg/mL
CC(C)N=c1cc2n(-c3ccc(Cl)cc3)c3ccccc3nc-2cc1Nc1ccc(Cl)cc1 | 98562 | 0.5 µg/mL